Laboratory results: patent publication US20170088600A1 (published 2017)

Target: TRAIL-R1-Fc (human TRAIL-R1 ectodomain Fc fusion) (human, UniProt O00220 24-239)
Assay: SPR

B1: UL141 (protein)
chain: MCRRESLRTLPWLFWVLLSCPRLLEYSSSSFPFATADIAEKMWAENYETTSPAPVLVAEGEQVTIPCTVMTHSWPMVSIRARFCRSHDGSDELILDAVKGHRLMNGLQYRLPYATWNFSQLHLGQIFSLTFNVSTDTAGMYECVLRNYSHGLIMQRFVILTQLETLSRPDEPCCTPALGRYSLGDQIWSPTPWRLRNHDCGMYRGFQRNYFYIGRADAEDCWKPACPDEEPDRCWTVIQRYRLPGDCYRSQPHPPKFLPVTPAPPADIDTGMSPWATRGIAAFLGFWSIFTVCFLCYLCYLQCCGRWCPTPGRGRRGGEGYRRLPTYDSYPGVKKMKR
Kd: 2330 nM
